The exact form of at least one protein or probe is not confirmed.
Tested on: YhcR-His (Staphylococcus aureus)
Experiment: EMSA
Conditions: YhcR 1-6 uM, competed by 100-fold unlabeled probe, poly(dI-dC), EMSA: 20 ul, 0.2 pmol DIG-DNA, 25 mM NaH2PO4 pH 8.0, 50 mM NaCl, 2 mM MgCl2, 1 mM DTT, 10% glycerol, room temperature 25 min, recombinant protein, residues 1-207, protein details: C-terminal His (pET24b NdeI/XhoI, implied), label: digoxigenin (DIG-ddUTP, terminal transferase), probe letters rebuilt from the primers and the genome

Sequence | binding result (two shifted bands) | binding result (dose-dependent)
TATGAGTTATCTATTTAGTTGCCAAAGATAAAATAATAATGTTTAATAACATCATATAGAGTATGTTAGTTTTAAATGTCGAATATACGAATGTGCAAACAAAGTAATCGGTAGAAATTCAACATACATAGCGCCGTTTACTGTTAAGTATTCACATTACAGATGAAAAATATAAAATTCTACATAATCAAGACCATGATGTGTACTTGTTTAACTTATGACTCTATTTGTTTAACAATTGCGATAATGGTCTTTTTATTTTATGCGTATCATTCGTCATATTTTTTATGAGGAAGGAGAAATGATTATGTT (double strand) [PopuC (opuCA upstream region, 312 bp)] | binds | –
CATCTGAACCAATAATAATCGCCATAATAAGACTCCTTTTTACTTTAATTTTGAAATACCTTTCTTAAAATGTGACATATTTATTTGTAGGTTATGAAAATCTTGAGAAAAGGCTTTCAATTTGATTACGTTTAAATTATAAACATAAACAAACAATAAATCAACATAATATGTTTATAATATGTTTGTTTATGACGTATTTTCAAACAATAAGTGAACATTCATATTGTGGTGTTGTTTTAATTAGGTATTCGTCTGAAATTGTAGTAAAACTTTGTCGAGGTTCCCGTTGACATAAATTTGCATAAAAAATAGCCCATAAATGAATGCAAATTCACATTCACTTATGAGCATATAGATACATATTTTAACAATGCAGTTATACTTTTAA (double strand) [Plac (lacA upstream region, 397 bp)] | – | binds
